From patent US20190359955
Substitutions are numbered along the chain they refer to. Where a protein sequence is shown, tags need not be part of it.

Experiments:
Assay in all cases: activity assay
[1] = target: T1, Tn5001 (hyperactive Tn5 transposase control) (UniProt Q46731); settings: tagmentation of B. cereus gDNA, reference control, purified recombinant protein, protein details: StrepTag-II and SUMO vector
T1 sequence (limits assumed): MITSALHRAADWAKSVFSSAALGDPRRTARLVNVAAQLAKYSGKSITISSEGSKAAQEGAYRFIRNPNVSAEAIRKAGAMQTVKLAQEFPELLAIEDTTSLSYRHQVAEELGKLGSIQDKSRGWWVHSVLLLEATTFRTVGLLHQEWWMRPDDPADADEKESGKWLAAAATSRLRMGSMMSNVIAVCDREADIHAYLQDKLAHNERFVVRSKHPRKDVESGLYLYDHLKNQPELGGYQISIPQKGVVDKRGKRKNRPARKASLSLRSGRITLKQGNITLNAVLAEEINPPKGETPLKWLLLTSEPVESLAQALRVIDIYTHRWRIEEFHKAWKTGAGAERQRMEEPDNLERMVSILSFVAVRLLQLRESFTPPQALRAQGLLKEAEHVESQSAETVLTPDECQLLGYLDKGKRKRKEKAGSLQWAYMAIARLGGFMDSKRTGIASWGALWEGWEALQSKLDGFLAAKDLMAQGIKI

[2] = target: T2, Tn5058 (hyperactive Tn5 K212R/P214R/A338V) (UniProt Q46731); settings: tagmentation; library size 1.7x of Tn5001, reduced AT dropout; purified recombinant protein; protein details: StrepTag-II and SUMO vector
T2 sequence (limits assumed): T1 sequence (limits assumed) with K212R, P214R, A338V

[3] = target: T3, Tn5059 (hyperactive Tn5 K212R/P214R/G251R/A338V) (UniProt Q46731); settings: tagmentation; library size 2.2x of Tn5001, reduced AT dropout; purified recombinant protein; protein details: StrepTag-II and SUMO vector
T3 sequence (limits assumed): T1 sequence (limits assumed) with K212R, P214R, G251R, A338V

[4] = target: T4, Tn5061 (hyperactive Tn5 E146Q/E190G/G251R) (UniProt Q46731); settings: tagmentation of B. cereus gDNA; purified recombinant protein; protein details: StrepTag-II and SUMO vector
T4 sequence (limits assumed): T1 sequence (limits assumed) with E146Q, E190G, G251R

[5] = target: T5, Tn5 D248Y (UniProt Q46731); settings: tagmentation of E. coli gDNA; loss of insertion symmetry; backbone (wt or hyperactive) not explicit; protein in a lysate after overexpression; protein details: StrepTag-II and SUMO vector
T5 sequence (limits assumed): T1 sequence (limits assumed) with D248Y

[6] = target: T6, Tn5 K120F (UniProt Q46731); settings: tagmentation of E. coli gDNA; duplication 9 to 10 bp; backbone not explicit; protein in a lysate after overexpression; protein details: StrepTag-II and SUMO vector
T6 sequence (limits assumed): T1 sequence (limits assumed) with K120F

[7] = target: T7, Tn5 K120W (UniProt Q46731); settings: tagmentation of E. coli gDNA; duplication 9 to 10 bp; backbone not explicit; protein in a lysate after overexpression; protein details: StrepTag-II and SUMO vector
T7 sequence (limits assumed): T1 sequence (limits assumed) with K120W

[8] = target: T8, Tn5 K120Y (UniProt Q46731); settings: tagmentation of E. coli gDNA; duplication 9 to 10 bp; backbone not explicit; protein in a lysate after overexpression; protein details: StrepTag-II and SUMO vector
T8 sequence (limits assumed): T1 sequence (limits assumed) with K120Y

[9] = target: T9, Tn5 W125M (UniProt Q46731); settings: tagmentation of E. coli gDNA; reduced bias in 2nd half of IVC plot; backbone not explicit; protein in a lysate after overexpression; protein details: StrepTag-II and SUMO vector
T9 sequence (limits assumed): T1 sequence (limits assumed) with W125M

Measured: activity on this sequence

GTCTCGTGGGCTCGGAGATGTGTATAAGAGACAG / CTGTCTCTTATACACATCT [Tn5-ME-B transposon (Tn5MEB/NTS)]
active: [1]; with ME-A | [2] | [3] | [4]

TCGTCGGCAGCGTCAGATGTGTATAAGAGACAG / CTGTCTCTTATACACATCT [Tn5-ME-A transposon (Tn5MEA/NTS)]
active: [5] | [6] | [7] | [8] | [9] | [1]; with ME-B | [2] | [3] | [4]
